Test system: MRC5
Assay: MRC5 cytotoxicity assay
Assay type: cell-based, human
Settings: selectivity index
Method: Primary peritoneal mouse macrophages (PMM) were collected two days after peritoneal stimulation with a 2% potato starch suspension. MRC5SV2 cells (diploid human embryonic lung fibroblasts) were cultured in minimal essential medium (MEM) containing Earle’s salts, supplemented with L-glutamine, NaHCO3, and 5% inactivated fetal calf serum. All cultures and assays were conducted at 37 °C under an atmosphere of 5% CO2.
Assays were performed in sterile 96-well microtiter plates, each well containing 10 μL of the compound dilution and 190 μL of MRC5SV2 or PMM inoculum (3 × 10^4 cells/mL). Cell growth was compared to untreated controls (100% growth) and assay-media controls (0% growth). After three-day incubation, cell viability was assessed fluorometrically by adding resazurin (50 μL/well of a stock solution in phosphate buffer (50 μg/mL)), incubating for 4 h and measuring fluorescence (λex 550 nm, λem 590 nm). The results were expressed as a percentage reduction in cell growth compared to untreated control wells. […] Tamoxifen was included as the reference drug.

[1] = Table 5, ratio of CC50/EC50 (L. infantum)
[2] = Table 6 (L. donovani table), ratio of CC50/EC50
[3] = Table 4, ratio of CC50/EC50 (L. infantum)

| Compound | MRC5 SI [1] | MRC5 SI [2] | MRC5 SI [3] |
| --- | --- | --- | --- |
| O=C(Nc1ccc2c(c1)B(O)OC2)c1nnc(-c2ccccn2)o1 [Compound 31, N-(1-Hydroxy-1,3-dihydrobenzo[c][1,2]oxaborol-6-yl)-5-(pyridin-2-yl)-1,3,4-oxadiazole-2-carboxamide] | >32 | >7 | – |
| Cc1cccc(-n2nnc(C(=O)Nc3ccc4c(c3)B(O)OC4)c2C)n1 [Compound 26, N-(1-Hydroxy-1,3-dihydrobenzo[c][1,2]oxaborol-6-yl)-5-methyl-1-(6-methylpyridin-2-yl)-1H-1,2,3-triazole-4-carboxamide] | >10 | – | – |
| Cc1c(C(=O)Nc2ccc3c(c2)B(O)OC3)nnn1-c1ccccc1 [Compound 24, N-(1-Hydroxy-1,3-dihydrobenzo[c][1,2]oxaborol-6-yl)-5-methyl-1-phenyl-1H-1,2,3-triazole-4-carboxamide] | >1.7 | – | – |
| CCCCCCCCCCCCCCCCOP(=O)([O-])OCC[N+](C)(C)C [miltefosine, reference compound] | – | – | >6.2 |
| Cc1c(C(=O)Nc2ccc3c(c2)B(O)OC3)nnn1-c1ccccn1 [Compound 23, N-(1-Hydroxy-1,3-dihydrobenzo[c][1,2]oxaborol-6-yl)-5-methyl-1-(pyridin-2-yl)-1H-1,2,3-triazole-4-carboxamide] | >39 | >46 | – |
| Cc1c(C(=O)Nc2ccc3c(c2)B(O)OC3)nnn1-c1cccnc1 [Compound 27, N-(1-Hydroxy-1,3-dihydrobenzo[c][1,2]oxaborol-6-yl)-5-methyl-1-(pyridin-3-yl)-1H-1,2,3-triazole-4-carboxamide] | >1.8 | – | – |
| Cc1nn(C2CCC2)cc1C(=O)Nc1ccc2c(c1)B(O)OC2 [Compound 8, Cyclobutyl-N-(1-hydroxy-1,3-dihydrobenzo[c][1,2]oxaborol-6-yl)-3-methyl-1H-pyrazole-4-carboxamide] | – | – | >4 |
| O=C(Nc1ccc2c(c1)B(O)OC2)c1ccc(F)cc1C(F)(F)F [Compound 3] | – | – | >24 |
| Cc1nn(CCC(F)(F)F)cc1C(=O)Nc1ccc2c(c1)B(O)OC2 [Compound 7, N-(1-Hydroxy-1,3-dihydrobenzo[c][1,2]oxaborol-6-yl)-3-methyl-1-(3,3,3-trifluoropropyl)-1H-pyrazole-4-carboxamide] | – | – | >11 |
| O=C(Nc1ccc2c(c1)B(O)OC2)c1cn(CC(F)(F)F)nc1C(F)(F)F [Compound 5, N-(1-Hydroxy-1,3-dihydrobenzo[c][1,2]oxaborol-6-yl)-1-(2,2,2-trifluoroethyl)-3-(trifluoromethyl)-1H-pyrazole-4-carboxamide] | – | >64 | >40 |
| Cc1c(C(=O)Nc2ccc3c(c2)B(O)OC3)cnn1CCC(F)(F)F [Compound 15, N-(1-Hydroxy-1,3-dihydrobenzo[c][1,2]oxaborol-6-yl)-5-methyl-1-(3,3,3-trifluoropropyl)-1H-pyrazole-4-carboxamide] | – | – | >5 |
| O=C(Nc1ccc2c(c1)B(O)OC2)c1cn(C2CCOCC2)nc1C(F)(F)F [Compound 10, N-(1-Hydroxy-1,3-dihydrobenzo[c][1,2]oxaborol-6-yl)-1-(tetrahydro-2H-pyran-4-yl)-3-(trifluoromethyl)-1H-pyrazole-4-carboxamide] | – | – | >21 |
| Cc1nn(-c2ccccn2)cc1C(=O)Nc1ccc2c(c1)B(O)OC2 [Compound 11, N-(1-Hydroxy-1,3-dihydro-2,1-benzoxaborol-6-yl)-3-methyl-1-(pyridine-2-yl)-1H-pyrazole-4-carboxamide] | – | – | >11 |
| COc1cccc(-n2nnc(C(=O)Nc3ccc4c(c3)B(O)OC4)c2C)n1 [Compound 25, N-(1-Hydroxy-1,3-dihydrobenzo[c][1,2]oxaborol-6-yl)-1-(6-methoxypyridin-2-yl)-5-methyl-1H-1,2,3-triazole-4-carboxamide] | >80 | – | – |
| Cn1nc(-c2ccccn2)cc1C(=O)Nc1ccc2c(c1)B(O)OC2 [Compound 20, N-(1-Hydroxy-1,3-dihydrobenzo[c][1,2]oxaborol-6-yl)-1-methyl-3-(pyridin-2-yl)-1H-pyrazole-5-carboxamide] | – | – | >2 |
| O=C(Nc1ccc2c(c1)B(O)OC2)c1cn(C(F)(F)F)nc1C(F)(F)F [Compound 4, N-(1-Hydroxy-1,3-dihydrobenzo[c][1,2]oxaborol-6-yl)-1,3-bis(trifluoromethyl)-1H-pyrazole-4-carboxamide] | – | – | >31 |
| Cc1c(C(=O)Nc2ccc3c(c2)B(O)OC3)cnn1-c1ccccn1 [Compound 16, N-(1-Hydroxy-1,3-dihydrobenzo[c][1,2]oxaborol-6-yl)-5-methyl-1-(pyridin-2-yl)-1H-pyrazole-4-carboxamide] | – | 52 | – |
| Cc1c(-c2ccccn2)coc1C(=O)Nc1ccc2c(c1)B(O)OC2 [Compound 28, N-(1-Hydroxy-1,3-dihydrobenzo[c][1,2]oxaborol-6-yl)-3-methyl-4-(pyridin-2-yl)furan-2-carboxamide] | – | 45 | – |

Source: article PMC8591608, “DNDI-6148: A Novel Benzoxaborole Preclinical Candidate for the Treatment of Visceral Leishmaniasis” (Journal of Medicinal Chemistry, 2021)
